A mixed list of measured activities; the numbers were collected in NIAID ChemDB.

All rows: tests in culture; species: HIV-1; cells: CEM-SS; endpoint: EC50

An empty or dashed field is not shown. ECn is the concentration giving n% inhibition of infection, replication or growth. Neighbouring rows are from separate reports.

smiles,strain or isolate,read by,value
Nc1c(C(=O)Nc2ncccn2)sc2nc(-c3ccccc3)cc(C(F)(F)F)c12,RF,XTT,>63 µM
Cc1cn([C@@H]2C[C@@H](N=[N+]=[N-])[C@H](COP(=O)(CF)OC[C@H]3O[C@@H](n4cc(C)c(=O)[nH]c4=O)C[C@@H]3N=[N+]=[N-])O2)c(=O)[nH]c1=O,BRU,p24 / ELISA / antigen,0.015 µM
C[C@@H]1CCO[C@H]2CN3C=C(C(=O)NCc4c(F)cc(F)nc4F)C(=O)C(=O)C3C(=O)N12,IIIB,XTT,0.145 µM
Cc1cn([C@H]2C[C@H](N=[N+]=[N-])[C@@H](CO)O2)c(=O)[nH]c1=O,BRU,p24 / ELISA / antigen,0.037 µM
COC(=O)c1cc(=O)c(O)c(OC)cc1C,RF,cytopathic effect / absorbance,>50 µM
C[C@H]1CO[C@@H]2CN3C=C(C(=O)NCc4cn5ncsc5n4)C(=O)C(=O)C3C(=O)N12,IIIB,XTT,0.0441 µM
NC(=NCCCCCCN=C(N)/N=C(\N)N1CCN(c2cc3c(cc2F)c(=O)c(C(=O)O)cn3C2CC2)CC1)/N=C(\N)N1CCN(c2cc3c(cc2F)c(=O)c(C(=O)O)cn3C2CC2)CC1,IIIB,XTT,12 µg/mL
Cc1cn([C@@H]2C[C@@H](N=[N+]=[N-])[C@H](COP(=O)(OC[C@H]3O[C@@H](n4cc(C)c(=O)[nH]c4=O)C[C@@H]3N=[N+]=[N-])c3ccccc3)O2)c(=O)[nH]c1=O,BRU,p24 / ELISA / antigen,10 µM
COc1c(C(=O)/C=C(/C)Nc2ccccc2)c(O)c(S(=O)(=O)OC2CCCC2)c2occc12,RF,cytopathic effect / MTS,0.000066 µM
C[C@H]1CO[C@@H]2CN3C=C(C(=O)NCc4ccncc4F)C(=O)C(=O)C3C(=O)N12,IIIB,XTT,>0.01 µM
N#Cc1cc2c(N)c(C(=O)Nc3cccc(C(F)(F)F)c3)sc2nc1N,RF,XTT,>63 µM
COc1ccc(OS(=O)(=O)c2c(O)c(-c3cc(C)on3)c(OC)c3ccoc23)cc1,RF,cytopathic effect / MTS,0.000049 µM
Cc1cccc(-c2ccccc2)c1Nc1nc(N(C)Cc2ccc3c(c2)CCO3)nc(=O)[nH]1,NL4-3,cytopathic effect,0.05 µM
O=C1Cc2ccc(-c3cccs3)cc2C(=O)N1O,IIIB,cytopathic effect / absorbance,>10 µM
C[C@@H]1CCO[C@H]2CN3C=C(C(=O)NCc4c(F)cncc4F)C(=O)C(=O)C3C(=O)N12,IIIB,XTT,0.0759 µM
O=C1Cc2cc(-c3csc4ccccc34)ccc2C(=O)N1O,IIIB,cytopathic effect / absorbance,>10 µM
COc1c(C(=O)/C=C(/C)Nc2ccc(Cl)cc2)c(O)c(S(=O)(=O)OC2CCCC2)c2occc12,RF,cytopathic effect / MTS,0.000062 µM
CCN(CC)C(=S)S,,p24,>100 µM
Cc1coc(CNC(=O)C2=CN3C[C@H]4OC[C@H](C)N4C(=O)C3C(=O)C2=O)n1,IIIB,XTT,0.0377 µM
Cc1cn([C@@H]2C[C@@H](N=[N+]=[N-])[C@H](COP(=O)(CI)OC[C@H]3O[C@@H](n4cc(C)c(=O)[nH]c4=O)C[C@@H]3N=[N+]=[N-])O2)c(=O)[nH]c1=O,BRU,p24 / ELISA / antigen,11 µM
COC(=O)c1cc(O)c(O)c(=O)cc1C,RF,cytopathic effect / absorbance,5.3 µM
C[C@H]1CO[C@@H]2CN3C=C(C(=O)NCc4nc5ccccc5n4C)C(=O)C(=O)C3C(=O)N12,IIIB,XTT,0.0284 µM
O=C1Cc2cc(-c3cc4ccccc4o3)ccc2C(=O)N1O,IIIB,cytopathic effect / absorbance,>10 µM
COc1c(-c2cc(C)n(-c3ccccc3)n2)c(O)c(S(=O)(=O)Oc2ccc(F)cc2)c2occc12,RF,cytopathic effect / MTS,0.000028 µM
C[C@H]1CO[C@@H]2CN3C=C(C(=O)NCc4cnc5cnccn45)C(=O)C(=O)C3C(=O)N12,IIIB,XTT,0.0207 µM
COc1c(C(=O)/C=C(/C)Nc2ccc(Cl)cc2)c(O)c(S(=O)(=O)OC2CCCCC2)c2occc12,RF,cytopathic effect / MTS,0.000068 µM
CCc1cc2c(N)c(C(N)=O)sc2nc1C,RF,XTT,>20 µM
COc1c2ccoc2c(S(=O)(=O)Oc2ccc([N+](=O)[O-])cc2)c2oc(C)cc(=O)c12,RF,cytopathic effect / MTS,0.000084 µM
O=C1Cc2c(cccc2-c2ccccc2)C(=O)N1O,IIIB,cytopathic effect / absorbance,>10 µM

Again, the opening 2 rows:

smiles	strain or isolate	read by	value
Nc1c(C(=O)Nc2ncccn2)sc2nc(-c3ccccc3)cc(C(F)(F)F)c12	RF	XTT	>63 µM
Cc1cn([C@@H]2C[C@@H](N=[N+]=[N-])[C@H](COP(=O)(CF)OC[C@H]3O[C@@H](n4cc(C)c(=O)[nH]c4=O)C[C@@H]3N=[N+]=[N-])O2)c(=O)[nH]c1=O	BRU	p24 / ELISA / antigen	0.015 µM